Anti-infective test results gathered from many reports (values: NIAID ChemDB through PubChem).

All rows: tests on isolated targets; agent: HIV-1; protein: Reverse transcriptase; measure: inhibition

An empty or dashed field is not shown. Two numbers with a dash give a range or band. Inhibition is in % at the dose shown (toxicity tests: loss of growth or viability). Conditions beyond the fields shown may differ between rows.

NC(=O)NC1NC(=O)NC1=O ; method: RT activity ; dose: 200 µg/mL ; value: 7.7%
[O]=[V](=[O])[O-] ; method: ELISA ; dose: 10 µM ; value: 23%
CC(C)(C)[Si](C)(C)OC[C@H]1O[C@@H](n2cnc3c(N)ncnc32)[C@H](O[Si](C)(C)C(C)(C)C)C12OS(=O)(=O)C=C2N ; method: ELISA ; dose: 16 µM ; value: 67%
O=C1CSC(c2c(F)cccc2F)N1c1cccc(C(F)(F)F)c1 ; method: ELISA ; dose: 10 µg/mL ; value: 0%
C=C(Cc1ccc(O)cc1)C(=C)Cc1ccc(O)cc1 ; dose: 250 µg/mL ; value: 0%
O=c1cc(-c2ccccc2)oc2cc(O)c(O)c(O)c12 ; method: nucleotide incorporation ; dose: 2 µg/mL ; value: 70%
Cc1cn([C@H]2CC[C@@H](CC(F)(F)P(=O)(O)OP(=O)(O)OP(=O)(O)O)O2)c(=O)[nH]c1=O ; method: fluorescence ; dose: 10 µM ; value: 41–58%
CCN1c2ncc(COc3ccccc3C(=O)OC)cc2C(=O)N(C)c2ccc(Cl)nc21 ; mutations: RT-Y188L ; method: RT activity ; dose: 1 µM ; value: 11%
Oc1cc(O)c2c(c1)O[C@H](c1ccc(O)c(O)c1)[C@H](O)C2 ; method: nucleotide incorporation ; dose: 20 µg/mL ; value: 22%
CN(c1ncccc1CO)C1CCN(C(=O)c2cc3cc(NS(C)(=O)=O)ccc3[nH]2)CC1 ; strain or isolate: IIIB ; mutations: RT-P236L ; method: nucleotide incorporation ; dose: 50 µM ; value: 7%
CCN1c2ncc(CNc3cccc([N+](=O)[O-])c3)cc2C(=O)N(C)c2ccc(Cl)nc21 ; strain or isolate: WT ; method: nucleotide incorporation / radiometric ; dose: 1 µM ; value: 86%
O=C(c1cc2ccccc2[nH]1)N1CCN(C(=O)c2ccco2)CC1 ; strain or isolate: IIIB ; method: RT activity ; dose: 50 µM ; value: 39.4%
CCN1c2ncc(Cc3cccc(O)c3)cc2C(=O)N(C)c2ccc(Cl)nc21 ; strain or isolate: WT ; method: nucleotide incorporation / radiometric ; dose: 1 µM ; value: 97%
O=C1CN=C(c2ccc[nH]2)c2cc(Cl)ccc2N1 ; method: ELISA ; dose: 25 µM ; value: 6%
O=C1CSC(c2ccnc3ccccc23)N1Cc1ccco1 ; method: ELISA ; dose: 10 µg/mL ; value: 9.99%
Oc1cc(O)c2c(c1)O[C@H](c1ccc(O)c(O)c1)[C@H](O)C2 ; dose: 1 µg/mL ; value: 0%
CC(C)Nc1cccnc1N1CCN(C(=O)c2cc3cc4c(cc3[nH]2)OCO4)CC1 ; strain or isolate: IIIB ; method: RT activity ; dose: 50 µM ; value: 99.9%
Nc1nc(Cl)c2ncn([C@H]3C=C[C@@H](COP([O-])(=S)OP(=O)(O)C(F)(F)P(=O)(O)O)C3)c2n1 ; method: fluorescence ; dose: 10 µM ; value: 3.9%
O=C(O[C@@H]1Cc2c(O)cc(O)cc2O[C@@H]1c1cc(O)c(O)c(O)c1)c1cc(O)c(O)c(O)c1 ; dose: 10 µg/mL ; value: 10%
C=C1[C@H]2CCC3C(CCC4[C@@]3(C)CCC[C@@]4(C)C(=O)O)(C2)[C@@H]1O ; method: RT activity ; dose: 200 µg/mL ; value: 20.5%
O=C(/C=C/c1ccc(O)c(O)c1)OC1[C@H](OC(=O)/C=C/c2ccc(O)c(O)c2)CC(O)(C(=O)O)C[C@H]1OC(=O)/C=C/c1ccc(O)c(O)c1 ; strain or isolate: IIIB ; dose: 10 µg/mL ; value: 95.6%
O=C(O)[C@H]1O[C@@H](Oc2cc3oc(-c4ccccc4)cc(=O)c3c(O)c2O)[C@H](O)[C@@H](O)[C@@H]1O ; strain or isolate: LAV ; dose: 5 µg/mL ; value: 46.49%
C[C@@]12CCC[C@@](C)(C(=O)O)C1CC[C@@]13C[C@H](CCC12)[C@](C)(O)C3 ; method: RT activity ; dose: 200 µg/mL ; value: 8.2%
[Cs+] ; method: ELISA ; dose: 100 µM ; value: 1%
CSCCN1C(=O)c2ccccc2Oc2nc(Cl)ccc21 ; method: HPLC ; dose: 1 µM ; value: 72%
O=c1oc2c(O)c(O)cc3c(=O)oc4c(O)c(O)cc1c4c23 ; dose: 10 µg/mL ; value: 72%
O=C(O)[C@H]1O[C@@H](Oc2cc3oc(-c4ccccc4)cc(=O)c3c(O)c2O)[C@H](O)[C@@H](O)[C@@H]1O ; dose: 10 µg/mL ; value: 90%
CCN1c2ncc(COc3ccc(C(=O)OC)cc3)cc2C(=O)N(C)c2ccc(Cl)nc21 ; mutations: RT-Y188L ; method: RT activity ; dose: 1 µM ; value: 20%
CC/C=C\C/C=C\C/C=C\C/C=C\C/C=C\CCCC(=O)OC(CO[C@H]1O[C@H](CS(=O)(=O)O)[C@@H](O)[C@H](O)[C@H]1O)OC(=O)CCCCCCCCCCCCCCC ; dose: 30 µM ; value: >90%
CCN(CC)C(=O)c1cc2cc3c(cc2[nH]1)OCO3 ; strain or isolate: IIIB ; method: RT activity ; dose: 50 µM ; value: 30.8%
O=[Se]([O-])[O-] ; method: ELISA ; dose: 100 µM ; value: 14%
Cc1cn([C@H]2CC[C@@H](COP([O-])(=S)OP(=O)(O)C(F)(F)P(=O)(O)O)O2)c(=O)[nH]c1=O ; method: fluorescence ; dose: 0.5 µM ; value: 20.7%
C1CCNCCNCCCNCCNC1 ; dose: 35 µM ; value: 100%
C/C=C/c1ccc2c(c1)[C@H](C)[C@@H](c1ccc(O)c(OC)c1)O2 ; method: RT activity / radiometric ; dose: 200 µg/mL ; value: 67.8%
C1=Cc2cccnc2N(C2CC2)c2ncccc21 ; mutations: RT-K103N ; method: nucleotide incorporation ; dose: 1 µM ; value: 73%
Cc1cccc(N2C(=O)CSC23CCCCC3)n1 ; method: ELISA ; dose: 10 µg/mL ; value: 22%
CC1=C(/C=C/C(C)=C/C=C/C(C)=C/C(=O)O)C(C)(C)CCC1 ; strain or isolate: HTLV-III ; method: nucleotide incorporation ; dose: 5 µg/mL ; value: 0%
C[C@@]12CCC[C@@](C)(C(=O)O)C1CC[C@@]13C[C@H](CCC12)[C@@](O)(CO)C3 ; method: RT activity ; dose: 200 µg/mL ; value: 25.2%
CCN1c2ncc(COc3cccc(C(=O)OC)c3)cc2C(=O)N(C)c2ccc(Cl)nc21 ; mutations: RT-Y188L ; method: RT activity ; dose: 1 µM ; value: 0%
C=CCc1ccc(O)c(-c2ccc(O)c(CC=C)c2)c1 ; strain or isolate: LAV ; method: RT activity ; dose: 500 µg/mL ; value: 33.2%
[Ba+2] ; method: ELISA ; dose: 100 µM ; value: 3%
Cc1cn([C@H]2C[C@H](N=[N+]=[N-])[C@@H](COP(=S)([S-])OP(=O)(O)C(F)(F)P(=O)(O)O)O2)c(=O)[nH]c1=O ; method: fluorescence ; dose: 0.5 µM ; value: 19%
COc1ccc([C@@H]2Oc3ccc(C=O)cc3C2C)cc1OC ; method: RT activity / radiometric ; dose: 200 µg/mL ; value: 46.5%
C=CC1=C(C)c2cc3[n-]c(cc4[n-]c(cc5nc(cc1n2)C(C)=C5C=C)c(C)c4CCC(=O)O)c(CCC(=O)O)c3C.[Mg+2] ; method: nucleotide incorporation / radiometric ; dose: 15 µM ; value: 47.5%
Cc1cn([C@H]2CC[C@@H](CC(F)(F)P(=O)(O)OP(=O)(O)NP(=O)(O)O)O2)c(=O)[nH]c1=O ; method: fluorescence ; dose: 10 µM ; value: 41–58%
COc1ccccc1N1CCN(C(=O)c2cc3ccccc3[nH]2)CC1 ; strain or isolate: IIIB ; method: RT activity ; dose: 50 µM ; value: 54.7%
CCN1c2ncc(CCc3ccccc3)cc2C(=O)Nc2c(C)cc(Cl)nc21 ; strain or isolate: WT ; method: nucleotide incorporation / radiometric ; dose: 1 µM ; value: 94%
O=c1c(O)c(-c2ccc(O)c(O)c2)oc2cc(O)c(O)c(O)c12 ; dose: 2 µg/mL ; value: 90%
Cc1cn([C@H]2CC[C@@H](COP([O-])(=S)OP(=O)(O)C(F)(F)P(O)(O)=S)O2)c(=O)[nH]c1=O ; method: fluorescence ; dose: 0.5 µM ; value: 29.1%
[Li+] ; method: ELISA ; dose: 10 µM ; value: 3%
Oc1cc(O)cc([C@H]2Oc3cc(O)cc(O)c3C[C@H]2O)c1 ; method: RT activity / radiometric ; dose: 200 µg/mL ; value: 28.7%
COc1ccc2[nH]c(=O)oc2c1 ; dose: 80 µM ; value: 19.5%
Cc1cn([C@H]2C[C@H](N=[N+]=[N-])[C@@H](CP(=O)(O)OP(=O)(O)NP(=O)(O)O)O2)c(=O)[nH]c1=O ; method: fluorescence ; dose: 10 µM ; value: 30–44%
Cc1cc(O)c2c(c1Br)C(=O)C=CC2=O ; method: RT activity ; dose: 100 µg/mL ; value: 70%
COc1ccc(-c2oc3cc(O)cc(O)c3c(=O)c2OC)cc1 ; method: RT activity ; dose: 200 µg/mL ; value: 46.8%
CO[C@H]1O[C@H](CN2C(=O)CS[C@H]2c2c(Cl)cccc2Cl)[C@@H](O)[C@H](O)[C@H]1O ; method: ELISA ; dose: 25 µg/mL ; value: 39.4%
CC[C@H](C)[C@H]1NC(=O)[C@@H](NC(=O)[C@@H](CC(C)C)N(C)C(=O)c2cc3ccccc3s2)[C@@H](C)OC(=O)[C@H](Cc2ccc(OC)cc2)N(C)C(=O)[C@@H]2CCCN2C(=O)[C@H](CC(C)C)NC(=O)[C@H](C(C)C)OC(=O)C[C@@H]1O ; method: nucleotide incorporation ; dose: 0.1 µg/mL ; value: ~0%
CC(=O)N1CCN(C(=O)c2cc(O)c(O)c(O)c2)CC1 ; strain or isolate: BH10 ; method: ELISA / nucleotide incorporation ; dose: 50 µM ; value: <5%
Cc1cn([C@H]2C[C@H](F)[C@@H](COP([O-])(=S)OP(=O)(O)C(F)(F)P(=O)(O)O)O2)c(=O)[nH]c1=O ; method: fluorescence ; dose: 10 µM ; value: 0.4%
Cc1cc(O)c2c(c1)C(=O)C=CC2=O ; method: RT activity ; dose: 100 µg/mL ; value: 100%
O=C(O)c1cc(O)c(O)c(O)c1 ; dose: 10 µg/mL ; value: 10%
O=C1CSC(c2c(F)cccc2Cl)N1Cc1ccco1 ; method: ELISA ; dose: 10 µg/mL ; value: 43.56%
Cc1cc(Cl)c2c(c1O)C(=O)C=CC2=O ; method: RT activity ; dose: 12.5 µg/mL ; value: 52%
CC1=C(O)c2c(oc(-c3ccccc3)cc2=O)C(C)(C)C1=O ; method: RT activity / radiometric ; dose: 200 µg/mL ; value: 31%
Cc1cc(O)c2c(c1F)C(=O)C=CC2=O ; method: RT activity ; dose: 12.5 µg/mL ; value: 49%
O=[As]O ; method: ELISA ; dose: 10 µM ; value: 27%
CCOc1ccccc1N1CCN(C(=O)c2cc3cc4c(cc3[nH]2)OCO4)CC1 ; strain or isolate: IIIB ; method: RT activity ; dose: 50 µM ; value: 98.5%
CCOc1cc(C)c(Cl)c2c1C(=O)C=CC2=O ; method: RT activity ; dose: 100 µg/mL ; value: 80%

For reference, 9 entries again:

smiles | strain or isolate | mutations | method | dose | value
CC1=C(O)c2c(oc(-c3ccccc3)cc2=O)C(C)(C)C1=O | - | - | RT activity / radiometric | 200 µg/mL | 31%
O=c1c(O)c(-c2ccc(O)c(O)c2)oc2cc(O)c(O)c(O)c12 | - | - | - | 2 µg/mL | 90%
COc1ccc(-c2oc3cc(O)cc(O)c3c(=O)c2OC)cc1 | - | - | RT activity | 200 µg/mL | 46.8%
C1CCNCCNCCCNCCNC1 | - | - | - | 35 µM | 100%
Oc1cc(O)cc([C@H]2Oc3cc(O)cc(O)c3C[C@H]2O)c1 | - | - | RT activity / radiometric | 200 µg/mL | 28.7%
Cc1cc(O)c2c(c1F)C(=O)C=CC2=O | - | - | RT activity | 12.5 µg/mL | 49%
O=C(O)[C@H]1O[C@@H](Oc2cc3oc(-c4ccccc4)cc(=O)c3c(O)c2O)[C@H](O)[C@@H](O)[C@@H]1O | - | - | - | 10 µg/mL | 90%
O=c1oc2c(O)c(O)cc3c(=O)oc4c(O)c(O)cc1c4c23 | - | - | - | 10 µg/mL | 72%
CCN(CC)C(=O)c1cc2cc3c(cc2[nH]1)OCO3 | IIIB | - | RT activity | 50 µM | 30.8%